Structure probing of HIV-1 leader RNA with DMS

Values reported by Ye et al. 2022 (doi:10.1038/s41594-022-00746-2).

RNA: 5' end of the HIV-1 NL4-3 genome, made in vitro. Positions 1-437 read:
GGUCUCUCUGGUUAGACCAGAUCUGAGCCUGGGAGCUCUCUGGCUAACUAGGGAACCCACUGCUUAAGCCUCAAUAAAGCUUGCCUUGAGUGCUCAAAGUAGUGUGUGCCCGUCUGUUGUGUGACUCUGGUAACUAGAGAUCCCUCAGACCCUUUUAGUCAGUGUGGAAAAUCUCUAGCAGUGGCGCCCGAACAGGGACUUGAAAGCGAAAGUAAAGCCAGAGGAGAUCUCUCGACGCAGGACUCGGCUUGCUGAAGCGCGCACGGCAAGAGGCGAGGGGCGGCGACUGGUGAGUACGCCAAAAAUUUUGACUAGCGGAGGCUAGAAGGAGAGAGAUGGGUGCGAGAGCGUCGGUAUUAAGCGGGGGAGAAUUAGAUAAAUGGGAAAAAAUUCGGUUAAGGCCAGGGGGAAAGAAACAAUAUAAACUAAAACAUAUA

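Randomly mutated transcripts starting with one, two or three G (1G, 2G, 3G), capped or uncapped, were folded for 30 min at 37 °C. High salt was 300 mM KCl and 5 mM MgCl2, low salt 40 mM KCl and 0.1 mM MgCl2; monomer and dimer were parted on a native gel. Gel slices were treated with 170 mM dimethyl sulfate for 15 min at 37 °C and read by mutational profiling against an ethanol control.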

Values are winsor-normalised DMS reactivities of A and C; higher means more reactive, usually unpaired. One numbering serves 1G, 2G and 3G. A position is written with its base.

position,3G uncapped low-salt monomer,2G capped low-salt dimer,2G capped high-salt monomer,2G capped high-salt dimer
A73,0.04,0.03,0.03,0.03
A74,0.99,0.64,0.77,0.58
A76,0.29,0.25,0.25,0.24
A77,0.87,0.71,0.83,0.72
A78,0.92,0.63,0.74,0.62
C80,0.30,0.36,0.40,0.38
C84,0.22,0.64,0.53,0.66
C85,0.15,0.38,0.33,0.40
A89,0.72,0.35,0.49,0.34
C93,0.03,0.03,0.03,0.03
C95,0.46,0.54,0.58,0.55
A96,0.35,0.23,0.25,0.21
A97,0.71,0.32,0.44,0.30
A98,0.63,0.27,0.36,0.26
A101,0.31,0.15,0.17,0.14
C109,0.08,0.21,0.20,0.24
C110,0.15,0.16,0.20,0.19
C111,0.31,0.23,0.32,0.26
C114,0.19,0.23,0.24,0.26
A124,1.41,0.94,1.07,0.92
C125,0.06,0.10,0.08,0.08
C127,0.03,0.03,0.03,0.03
A132,0.55,0.52,0.51,0.50
A133,1.57,1.39,1.47,1.36
C134,0.16,0.17,0.16,0.15
A136,0.10,0.10,0.11,0.10
A138,0.13,0.11,0.13,0.11
A140,0.45,0.33,0.41,0.32
C142,0.08,0.07,0.08,0.07
C143,0.03,0.03,0.03,0.03
C144,0.03,0.03,0.03,0.03
C146,0.12,0.12,0.12,0.12
A147,0.40,0.42,0.45,0.42
A149,0.09,0.08,0.11,0.07
C150,0.07,0.05,0.07,0.04
C151,0.85,0.74,0.77,0.71
C152,0.85,0.82,0.85,0.82
A157,0.96,0.90,0.92,0.91
C160,0.10,0.05,0.05,0.05
A161,0.51,0.46,0.49,0.44
A168,0.49,0.44,0.47,0.43
A169,0.75,0.68,0.73,0.67
A170,0.55,0.50,0.52,0.48
A171,0.46,0.43,0.45,0.45
C173,0.03,0.03,0.03,0.03
C175,0.03,0.03,0.03,0.03
A177,0.24,0.26,0.24,0.24
C179,0.95,0.81,0.81,0.84
A180,0.66,0.58,0.56,0.61
C185,0.49,0.44,0.44,0.45

The opening 3 entries, copied out:

A73 gave 3G uncapped low-salt monomer 0.04; 2G capped low-salt dimer 0.03; 2G capped high-salt monomer 0.03; 2G capped high-salt dimer 0.03.
A74 gave 3G uncapped low-salt monomer 0.99; 2G capped low-salt dimer 0.64; 2G capped high-salt monomer 0.77; 2G capped high-salt dimer 0.58.
A76 gave 3G uncapped low-salt monomer 0.29; 2G capped low-salt dimer 0.25; 2G capped high-salt monomer 0.25; 2G capped high-salt dimer 0.24.